{"source": "patent US20220047701A1", "about": "“COMBINATION OF HER2/NEU ANTIBODY WITH HEME FOR TREATING CANCER” (INSERM (Institut National de la Santé et de la Recherche …, priority 2018, published 2022)", "test_system": "Lysates of Bacillus anthracis or human umbilical vein endothelial cells (HUVEC)", "type": "binding", "conditions": "Trastuzumab 0.2 μM, heme 0.15-20 μM", "data": [{"substance": "heme-exposed Trastuzumab: Trastuzumab pre-treated with heme; elutes as monomeric and oligomeric species", "values": [{"measurement": "binding to bacterial and autoantigens", "value": "concentration-dependent increase of binding"}]}]}
